# Construct, isoform or probe ends are uncertain for at least one entry. Where a protein sequence is shown, tags need not be part of it.
# Target: T1, 6H-SsrBc (UniProt Q7CQM5)
# T1 sequence (looked up, limits assumed): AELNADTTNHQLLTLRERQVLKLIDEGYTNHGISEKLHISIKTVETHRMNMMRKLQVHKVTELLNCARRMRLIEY
# Assay: EMSA
# Settings: 0-2 uM protein; recombinant protein; probe letters rebuilt from the primers and the genome
row,Sequence,binding result
1,TAGGGATCCTCTTCGAGAAAAATGGTTCTGATGGTGTAATTATCAGACCATTAACCATGAAGATATAATAAGCAGCATTTACACCCCAAAAAAATGCAGTAAGATAGCTACAAAAAAGCTTTCT (double strand) [hilA -100+6 WT],binds
2,CAAGGATCCCTAATAAAGAGCATTTACAACTCAGATTTTTTCAGTAGGATACCAGTAAGGAACATTAAAATAACATCAACAAAGGGATAATATGGAAAATGTAACCTTTGTAAGTAATAGTCATCAGCGTCCTGCCGCAGATAAGCTTCAG (double strand) [hilD -48+88],binds
3,CAGAAGCTTTCAGCGCCGGGCATCTAAATATTTACATATTTAACTTGGCCTCATTGCAATAGAGATTAGTTTTGTAGCTATCTTACTGCATTTTTTTGGGGTGTAAATGCTGCTTATTATATCTTCATGGTTAATGGTCTGATAATTACACCATCAGAACCATTTTTCTCGAAGATTTCCACTAAATGACCATTCGTTGAAAGTTTAAGAGTGTAATTTGTCTTAGGTTCCAAAATATAAATGAAAGACTGTTTTTAATGGTGCGCTTATTTTTATATTTTTTTGCAAAATAATGATATCGTCTTTTCTTTACTCCCTTCAGTTATAGCGTCAAAAAGGCAGGAGGGTTATGAGCAGTATCATCCTCAGGCTGGCTCCAGGCATTATATCGATATCAGGAGGAAGAGAGGAGGTATGCCTGGCAGAAAGCTAACAAGCGTGACTGTTTCGGTATAAACCGTTCAGGCAAATAGTTCTCAGAGGGATCCGAT (double strand) [hilA -410+66],binds
4,CTGAAGCTTATCTGCGGCAGGACGCTGATGACTATTACTTACAAAGGTTACATTTTCCATATTATCCCTTTGTTGATGTTATTTTAATGTTCCTTACTGGTATCCTACTGAAAAAATCTGAGTTGTAAATGCTCTTTATTAGCGTGTGTTGGCAATGGTCTGATTGTTACACCAAAAGAACCCAAATTTGGGTAATTTATCTGGATCCGTT (double strand) [hilD -108+88],binds
